Assay results reported in patent publication US10987371B2 (priority 2017, dated 2021).

Test system: VSV

Structure (SMILES): O=c1c(O[C@@H]2O[C@H](CO)[C@@H](O)[C@H](O)[C@H]2O)c(-c2ccc(O)c(O)c2)oc2cc(O)cc(O)c12 [Q3G, Quercetin-3-β-O-D-glucoside]
- effect on wildtype VSV replication (10 μM Q3G only as a pre-treatment (1 h), Vero E6): no effect
- decrease of wildtype VSV titers (10 μM Q3G pre-treatment and kept in presence of Q3G throughout replication): 5 logs
